Anti-infective test results gathered from many reports (values: NIAID ChemDB through PubChem).

Common to all: growth or infection tests; species: Mycobacterium tuberculosis

MIC bound comes from a single tested concentration. Blank or dashed fields: not listed here. Rows are shuffled and stem from different studies. ECn is the concentration giving n% inhibition of infection, replication or growth. Inhibition is in % at the dose shown (toxicity tests: loss of growth or viability).

SMILES | strain or isolate | read by | measure | tested at | value
CC12COCN1COC2 | H37Rv |  | MIC |  | >100 µg/mL
CC1CN(C(=N)C#N)C(C)CN1C(=N)C#N | H37Rv | BACTEC | MIC |  | ≥12.5 µg/mL
CO[C@H]1/C=C/O[C@@]2(C)Oc3c(C)c(O)c4c(O)c(c(/C=N/N5CCN(C/C=C/c6ccccc6)CC5)c(O)c4c3C2=O)NC(=O)/C(C)=C\C=C\[C@H](C)[C@H](O)[C@@H](C)[C@@H](O)[C@@H](C)[C@H](OC(C)=O)[C@@H]1C | 2624 (rifampin-sensitive) |  | MIC |  | 0.025 µg/mL
C=CCNc1nc(NC(=O)OCC)cc(N)c1[N+](=O)[O-] | H37Rv |  | inhibition | 12.5 µg/mL | 0%
C=CCN(CC=C)C1=CC(=O)C(=O)c2ccccc21 | H37Rv | resazurin | MIC bound |  | >6.25 µg/mL
CC(C)c1cc(C(C)C)c(C(=O)/C=N/N)c(C(C)C)c1 | H37Rv |  | MIC |  | >100 µg/mL
CC(C)c1ccc2c(c1)CC[C@H]1[C@](C)(CNCCNC3CCCCC3)CCC[C@]21C |  |  | MIC |  | 25 µM
CCn1c2ccccc2c2cc(N)ccc21 | H37Rv |  | MIC |  | >100 µg/mL
CC(C)=NNC(=O)C1CCN1C(c1ccccc1)c1ccccc1 | H37Rv | BACTEC | inhibition | 12.5 µg/mL | -2%
COCCNCCNC[C@]1(C)CCC[C@]2(C)c3ccc(C(C)C)cc3CC[C@@H]12 |  |  | MIC |  | 12.5 µM
Nc1nccc(NCCCCN2CCCCC2)n1 | H37Rv |  | MIC |  | >100 µg/mL
Cc1cccc(CNCCNC[C@]2(C)CCC[C@]3(C)c4ccc(C(C)C)cc4CC[C@@H]23)c1 |  |  | MIC |  | 12.5 µM
FC(F)(F)c1ccc(CNCCNCCc2ccc(Cl)cc2Cl)cc1 |  |  | MIC |  | 50 µM
CN1C/C(=C\c2ccc(N(C)C)cc2)C(=O)/C(=C/c2ccc(N(C)C)cc2)C1 | H37Rv | BACTEC | inhibition | 12.5 µg/mL | 0%
Nc1ccc(C(=O)/C=C/c2cccnc2N)cc1 | H37Rv |  | EC50 |  | >12.5 µg/mL
CCCCCCCCCCCNCCNCc1ccc(F)cc1 |  |  | MIC |  | 50 µM
CCCCCNCCNC12CC3CC(CC(C3)C1)C2 |  |  | MIC |  | 37.5 µM
CO[C@@H]1[C@@H](OC(=O)c2ccc(C)[nH]2)[C@@H](O)C(Oc2ccc3c(O)c(NC(=O)c4c[nH]c(C(=O)Nc5c(O)c6ccc(OC7OC(C)(C)[C@H](OC)[C@@H](OC(=O)c8ccc(C)[nH]8)[C@H]7O)c(C)c6oc5=O)c4C)c(=O)oc3c2C)OC1(C)C | EMB-R |  | MIC |  | 6.4 µg/mL
CC1(C)[C@H]2CC[C@@H](CNCCNC34CC5CC(CC(C5)C3)C4)[C@@H]1C2 |  |  | MIC |  | 12.5 µM
CCOC(=O)Nc1cc2[nH]c(=O)c(-c3ccccc3)nc2c(N)n1 | H37Rv |  | EC50 |  | >12.5 µg/mL
O=C(O)c1cc(-c2ccccc2)nc2ccccc12 | H37Rv |  | MIC |  | >100 µg/mL
O=C1c2ccccc2OC(c2ccccc2)C1O |  |  | EC50 |  | >12.5 µg/mL
COC1=C(OC)C(=O)C(SCCCCCCC2CCCCC2)=C(C)C1=O | H37Rv | resazurin | inhibition | 6.25 µg/mL | 27%
COc1ccc(CNCCNC(c2ccccc2)c2ccccc2)c(OC)c1 |  |  | MIC |  | 50 µM
CC(NCCNCc1ccccc1)c1cccc2ccccc12 |  |  | MIC |  | 50 µM
CN(C)c1ccc(N=C2C(=O)NC3C=CC=CN23)cc1 | H37Rv |  | MIC |  | >100 µg/mL
C=C1[C@H]2CC[C@@]3(CC[C@@H]4[C@@]5(C)CCC[C@@]4(C=[N+](CCO)C5)[C@@H]3C2)[C@@H]1O | H37Rv | BACTEC | MIC |  | ≥128 µg/mL
O=C1CCC(c2ccccc2)(c2ccccc2)O1 | H37Rv |  | MIC |  | >100 µg/mL
CC(CN1c2ccccc2Sc2ccc(Cl)cc21)N(C)CCCl.Cl | H37Rv | BACTEC | inhibition | 12.5 µg/mL | 33%
COc1ccc(/C=C/C(=O)c2ccccn2)cc1 | H37Rv |  | inhibition | 12.5 µg/mL | 0%
COc1ccccc1CCNCCNC12CC3CC(CC(C3)C1)C2 |  |  | MIC |  | 25 µM
CCOC(=O)Nc1cc2c(c(/N=C/N(C)C)n1)N=C(c1ccccc1)CO2 | H37Rv |  | EC50 |  | >12.5 µg/mL
CC(=O)Nc1cc([As](=O)(O)O)ccc1O | H37Rv |  | MIC |  | >100 µg/mL
COc1ccc(C2Oc3ccccc3C(=O)C2O)cc1 |  |  | EC50 |  | >12.5 µg/mL
Fc1ccc(NC(=S)SCc2ccco2)cc1 | H37Rv | BACTEC | inhibition | 12.5 µg/mL | 36%
COC(=O)CCCC(=O)O | H37Rv |  | MIC |  | >100 µg/mL
COc1cc(CC2C(=O)OCC2C2(c3ccc4c(c3)OCO4)SCCCS2)cc(OC)c1OC | H37Rv | BACTEC | inhibition | 12.5 µg/mL | -22%
O=C(O)c1cc(Cl)c(Cl)c([N+](=O)[O-])c1 | H37Rv |  | MIC |  | >100 µg/mL
O=C(N/N=C/c1c(O)ccc2ccccc12)C(=O)N/N=C/c1c(O)ccc2ccccc12 | H37Rv | BACTEC | MIC |  | ≥12.5 µg/mL
C1N2CN3CN1CN(C2)C3 | H37Rv |  | MIC |  | >100 µg/mL
CC1(C)CC2CC(C)(CN2CCNC[C@@H]2CC[C@H]3C[C@@H]2C3(C)C)C1 |  |  | MIC |  | 6.25 µM
CCCCCNCCNCc1ccc(OC)cc1OC |  |  | MIC |  | 25 µM
CCOC(=O)/C(C#N)=C/Nc1cccc(C(F)(F)F)c1 | H37Rv |  | MIC |  | >100 µg/mL
CCN(CC)CCN(C)Cc1coc(-c2ccccc2)c1Cl.Cl.Cl | H37Rv | BACTEC | MIC |  | 1.56 µg/mL
CCOC(=O)Nc1cc(N(C)C(c2ccccc2)c2ccccc2)c([N+](=O)[O-])c(N)n1 | H37Rv |  | EC50 |  | >12.5 µg/mL
Cc1ccc2nc(/C=C/c3ccccc3Cl)c(=O)[nH]c2c1 | H37Rv | BACTEC | MIC bound |  | >12.5 µg/mL
CCCCCc1ccc(Oc2ccc([N+](=O)[O-])cc2C(=O)Nc2cccc(NC(C)=O)c2)c(CCCCC)c1 | H37Rv |  | MIC |  | 100 µg/mL
CCC(CO)NCCNCC12CC3CC(CC(C3)C1)C2 |  |  | MIC |  | 9.4 µM
CCCCCCCCCCCNCCNCCc1cccc(F)c1 |  |  | MIC |  | 25 µM
CO[C@H]1/C=C/O[C@@]2(C)Oc3c(C)c(O)c4c(=O)c(c5oc6cc(N7CCN(CC(C)C)CC7)cc(=O)c6nc5c4c3=C2O)NC(=O)/C(C)=C\C=C\[C@H](C)[C@H](O)[C@@H](C)[C@@H](O)[C@@H](C)[C@H](OC(C)=O)[C@@H]1C | 2912 (rifampin-sensitive) |  | MIC |  | 0.006 µg/mL
COc1ccc(/C=N/Nc2nc(C)c3c(n2)Nc2ccccc2NC3=O)cc1 | H37Rv | BACTEC | MIC bound |  | >12.5 µg/mL
O=C1Nc2c(Cl)cc(Cl)cc2C1=O | H37Rv |  | MIC |  | >100 µg/mL
Cc1ccc(CNCCNCc2ccc(F)cc2)cc1 |  |  | MIC |  | 50 µM
CCOC(=O)Nc1cc(=O)c([N+](=O)[O-])c(N)[nH]1 | H37Rv |  | inhibition | 12.5 µg/mL | 0%
CCCCCc1cc(O)c2c3c(c(=O)oc2c1)C(C)CC(C)C3 | H37Rv |  | MIC |  | >100 µg/mL
C=C(C)C1Cc2c(ccc3c(=O)c4c(oc23)COc2cc(OC)c(OC)cc2-4)O1 | H37Rv | BACTEC | inhibition | 12.5 µg/mL | -9%
O=C(Nc1ccccc1)C(F)(F)F | H37Rv |  | MIC |  | >100 µg/mL
Cc1nc2cc[nH]n2c(=O)c1CCc1ccccc1 | H37Rv | resazurin | MIC bound |  | >6.25 µg/mL
CCOC(=O)/C=C(\C)NC(N)=O | H37Rv |  | MIC |  | >100 µg/mL
CCN(CC)CCCNc1ccc2ncn3c4ccc(O)cc4c(=O)c1c23.Cl | H37Rv | BACTEC | inhibition | 12.5 µg/mL | 52%
CCN(CC)CC(COC(=O)Nc1ccccc1)OC(=O)Nc1ccccc1 | H37Rv |  | MIC |  | >100 µg/mL
Cn1c([N+](=O)[O-])cnc1COC(=O)N1CCN(C(=O)OCc2ncc([N+](=O)[O-])n2C)CC1 | H37Rv | resazurin | inhibition | 6.25 µg/mL | -5%
C[C@@H]1[C@H]2C[C@@H](C[C@H]1NCCN[C@@H](C)C1CCCCC1)C2(C)C |  |  | MIC |  | 25 µM
Cc1cccc(C)c1NC(=S)NC=C(C(N)=O)C(N)=O | H37Rv | resazurin | inhibition | 6.25 µg/mL | -10%
CC(C)(C)c1ccc(Nc2ccc(C(C)(C)C)cc2)cc1 | H37Rv |  | MIC |  | >100 µg/mL
COC(=O)C1=C2\c3cc4c(cc3CCN2C(=O)c2ccc(OC)c(OC)c2/C(OC)=C\1)OCO4 | H37Rv | BACTEC | inhibition | 12.5 µg/mL | 25%
Nc1ccc(S(=O)(=O)c2ccc(NC(=O)c3cccnc3)cc2)cc1 | H37Rv |  | MIC |  | >100 µg/mL

Repeating the final 7 entries:

SMILES,strain or isolate,read by,measure,tested at,value
CCN(CC)CC(COC(=O)Nc1ccccc1)OC(=O)Nc1ccccc1,H37Rv,,MIC,,>100 µg/mL
Cn1c([N+](=O)[O-])cnc1COC(=O)N1CCN(C(=O)OCc2ncc([N+](=O)[O-])n2C)CC1,H37Rv,resazurin,inhibition,6.25 µg/mL,-5%
C[C@@H]1[C@H]2C[C@@H](C[C@H]1NCCN[C@@H](C)C1CCCCC1)C2(C)C,,,MIC,,25 µM
Cc1cccc(C)c1NC(=S)NC=C(C(N)=O)C(N)=O,H37Rv,resazurin,inhibition,6.25 µg/mL,-10%
CC(C)(C)c1ccc(Nc2ccc(C(C)(C)C)cc2)cc1,H37Rv,,MIC,,>100 µg/mL
COC(=O)C1=C2\c3cc4c(cc3CCN2C(=O)c2ccc(OC)c(OC)c2/C(OC)=C\1)OCO4,H37Rv,BACTEC,inhibition,12.5 µg/mL,25%
Nc1ccc(S(=O)(=O)c2ccc(NC(=O)c3cccnc3)cc2)cc1,H37Rv,,MIC,,>100 µg/mL